Results of unrelated studies side by side (data: NIAID ChemDB).

All rows: enzyme or target tests; species: HIV-1; protein: Reverse transcriptase; measure: IC50

Conditions beyond the fields shown may differ between rows. Two numbers with a dash give a range or band. Blank or dashed fields: not listed here. ICn: concentration for n% inhibition.

Nc1ccn([C@H]2CC[C@@H](COP(=O)(O)OP(=O)(O)OP(=O)(O)O)O2)c(=O)n1 ; strain: IIIB ; value: 0.3 µg/mL
CCc1cn([C@H]2CC[C@@H](COP(=O)(O)OP(=O)(O)OP(=O)(O)O)O2)c(=O)[nH]c1=O ; value: 0.108 µM
CCN(CC)CCNc1nc(NCCCNC(=O)c2cccc(C(=O)NCCCNc3nc4c(c(NCCN(CC)CC)n3)CC=CC4)c2)nc2c1CC=CC2 ; value: >50 µM
COC(=O)[C@H](Cc1c[nH]c2ccccc12)NP(=O)(O)OC[C@H]1O[C@@H](n2cc(C)c(=O)[nH]c2=O)C[C@@H]1N=[N+]=[N-] ; value: >100 µM
CCCN1C(=O)c2ccnnc2N(CCC)c2ccccc21 ; value: <330 µM
CC(=O)Nc1ccc2c(c1)C(C#CCC(C)C)(C(F)(F)F)OC(=O)N2 ; value: >2 µM
CC(=O)Oc1c(OCC(=O)c2ccccc2)ccc2c1C(=O)c1ccccc1C2=O ; changes: K103N ; value: 35 µM
CCn1c(=O)c(C)cn([C@@H]2O[C@H](CO[Si](C)(C)C(C)(C)C)C3(OS(=O)(=O)C=C3N)[C@H]2O[Si](C)(C)C(C)(C)C)c1=O ; value: 0.7 µM
Nc1ncnc2c1ncn2[C@@H]1O[C@H](CO)C=C1F ; value: 0.4 µM
CC1=CCC[C@H]2[C@](C)(Cc3c(O)ccc(O)c3O)[C@@H](C)CC[C@]12C ; value: 14.5 µg/mL
CCCCCCCCCCCCCCCC(=O)NC1C(COP(=O)(O)OC2CC(COP(=O)(O)OC3CC(CO)OC3n3cnc4c(N)ncnc43)OC2n2cnc3c(N)ncnc32)OC(n2cnc3c(N)ncnc32)C1O ; value: ~100 µM
CC(C)=CCOc1cc(NC(=S)c2ccsc2C)ccc1Cl ; changes: RT-E138K ; value: 0.2 µM
CC(=O)O[C@@H]1[C@H](OC(=O)CC(C)C)c2c(ccc3ccc(=O)oc23)OC1(C)C ; strain: IIIB ; value: >100 µg/mL
CCCC#CC1(C(F)(F)F)OC(=O)Nc2ccc(N)cc21 ; value: 1.894 µM
Nc1ncnc2c1nnn2[C@H]1CO[C@@H](COP(=O)(O)OP(=O)(O)OP(=O)(O)O)C1 ; value: 4.3 µM
Cc1cn([C@H]2C[C@H](N=[N+]=[N-])[C@@H](COS(=O)(=O)NC(=O)OCP(=O)(O)O)O2)c(=O)[nH]c1=O ; value: 300 µM
C=C1CC[C@@H](OC(=O)CCC(=O)OC2CC(COP(=O)(O)OC3CC(COP(=O)(O)OC4CC(CO)OC4n4cnc5c(N)ncnc54)OC3n3cnc4c(N)ncnc43)OC2n2cnc3c(N)ncnc32)C/C1=C/C=C1\CCC[C@]2(C)[C@@H]([C@@H](C)/C=C/[C@H](C)C(C)C)CC[C@@H]12 ; value: <300 µM
O=C(c1c(O)cc(O)cc1O)c1c(-c2ccc(O)cc2)oc2cc(O)c3c(c12)O[C@H](c1ccc(O)cc1)[C@@H](O)C3 ; strain: IIIB ; value: >1000 µg/mL
C=C1C(=O)O[C@@H]2C[C@@H]3[C@]4(CC[C@]5(C)[C@@H]([C@H](C)CC/C=C(\C)C=O)CC[C@@]35C)C[C@]4(CCC(=O)OC)[C@H]12 ; value: 49.7 µg/mL
CCCN1c2ccccc2N(C)C(=O)c2cc(Cl)nnc21 ; value: <330 µM
Nc1ccn([C@H]2CC[C@@H](COP(=O)(O)OP(=O)(O)OP(=O)(O)O)O2)c(=O)n1 ; value: ~0.41 µM
C=C1CC[C@@H](OC(=O)CCC(=O)OCC2CC(OP(=O)(O)OCC3CC(OP(=O)(O)OCC4CC(O)C(n5cnc6c(N)ncnc65)O4)C(n4cnc5c(N)ncnc54)O3)C(n3cnc4c(N)ncnc43)O2)C/C1=C/C=C1\CCC[C@]2(C)[C@@H]([C@@H](C)/C=C/[C@H](C)C(C)C)CC[C@@H]12 ; value: >300 µM
CCCN1c2ccc(C)cc2N(C)C(=O)c2ccnnc21 ; value: >330 µM
CC(C)C#CC1(C(C)C)NS(=O)(=O)Nc2ccc(Cl)cc21 ; value: 24.1 µM
Cc1cn([C@H]2C[C@H](N=[N+]=[N-])[C@@]3(COP(=O)(O)OP(=O)(O)OP(=O)(O)O)CC23)c(=O)[nH]c1=O ; strain: BH10 ; value: ~0.001 µM
CCCCCCCCCCCCCCCC(=O)NC1C(COP(=O)(O)OC2CC(COP(=O)(O)OC3C(O)C(CO)OC3n3cnc4c(N)ncnc43)OC2n2cnc3c(N)ncnc32)OC(n2cnc3c(N)ncnc32)C1O ; value: 100 µM
COC(=O)c1cc2cc(CCc3cc4c(o3)C(=O)c3c(O)c(OC)cc(OC)c3C4=O)c(O)c(O)c2c(=O)o1 ; value: 116 µM
CCCN1C(=O)c2cc(Cl)nnc2N(CC)c2ccccc21 ; value: >330 µM
S=C(NCCc1ccccn1)Nc1ccncn1 ; value: 3.3–33 µM
CC(=O)Oc1c(OC(C)C(C)=O)ccc2c1C(=O)c1ccccc1C2=O ; changes: Y181C ; value: >100 µM
Nc1nc(=O)n([C@@H]2C=C[C@H](COP(=O)(O)OP(=O)(O)OP(=O)(O)O)O2)cc1F ; value: 0.2 µM
O=C(O)c1cn([C@@H]2O[C@H](CO)[C@@H](O)[C@H]2O)c2ccc(Cl)cc2c1=O ; value: >100 µM
CC1=CCC[C@H]2[C@](C)(CC3=CC(=O)C=C(O)C3=O)[C@@H](C)CC[C@]12C ; value: 6.8 µg/mL
CC(C)=CCOc1cc(NC(=S)c2ccoc2C)ccc1Cl ; value: 3.2 µM
Cn1ncc2c1S(=O)(=O)NC(=O)N2Cc1ccc(Cl)cc1 ; value: 80 µM
Cc1cn([C@H]2C=C[C@@H](CO)O2)c(=O)[nH]c1=O ; value: >100 µM
NS(=O)(=O)c1ccc(NC(=O)c2ccc(SSc3ccc(C(=O)Nc4ccc(S(N)(=O)=O)cc4)cc3)cc2)cc1 ; value: >100 µM
CCN1c2ccc(C)cc2N(C)C(=O)c2cc(Cl)nnc21 ; value: <330 µM
Nc1nc2c(ncn2[C@H]2CC[C@@H](COP(=O)(O)OP(=O)(O)OP(=O)(O)O)O2)c(=O)[nH]1 ; changes: RT-K65R ; value: 0.08 µM
CCOn1c(C)nc2c(C)cccc21 ; value: 34.8 µM
Cc1c(C)c2c(c(C)c1OC(=O)CCC(=O)OC1CC(COP(=O)(O)OC3CC(COP(=O)(O)OC4CC(CO)OC4n4cnc5c(N)ncnc54)OC3n3cnc4c(N)ncnc43)OC1n1cnc3c(N)ncnc31)CCC(C)(CCCC(C)CCCC(C)CCCC(C)C)O2 ; value: <300 µM
CCCN1C(=O)c2ccnnc2N(CC)c2ccccc21 ; value: <330 µM
COC(=O)[C@H](Cc1ccccc1)NP(=O)(OCCC#N)OC[C@H]1O[C@@H](n2cc(C)c(=O)[nH]c2=O)C[C@@H]1N=[N+]=[N-] ; value: >100 µM
O=C(O)c1cn([C@@H]2O[C@H](CO)[C@@H](O)[C@H]2O)c2ccc(Br)cc2c1=O ; value: >100 µM
Cc1cn([C@H]2C[C@H](F)[C@@H](COP(=O)(O)OP(=O)(O)OP(=O)(O)O)O2)c(=O)[nH]c1=O ; value: 0.33 µM
O=C(O[C@@H]1O[C@H](CO)[C@@H](O)[C@H](O)[C@H]1O)c1cc(O)c(O)c(O)c1 ; value: >1000 µM
COc1ccc2[nH]c(C(=O)N3CCN(c4ncccc4NC(C)C)CC3)cc2c1 ; strain: IIIB ; value: 0.25 µM
NC(=O)[C@@H](Nc1ccccc1[N+](=O)[O-])c1c(Cl)cccc1Cl ; value: 0.4 µM
C=C1C(=O)O[C@@H]2C[C@@H]3[C@]4(CC[C@]5(C)[C@@H]([C@H](C)CCC=C(C)C)CC[C@@]35C)C[C@]4(CCC(=O)OC)[C@H]12 ; value: >9.9 µg/mL
O=C(Oc1ccc2c(c1OC(=O)c1ccccc1)C(=O)c1ccccc1C2=O)c1ccccc1 ; value: 12 µM
C=C1OC(=O)CC[C@]23C[C@]24CC[C@]2(C)[C@@H]([C@H](C)CCC=C(C)C)CC[C@@]2(C)[C@@H]4CC[C@@H]13 ; value: >2.6 µg/mL
NC1C=CN([C@@H]2O[C@H](COP(=O)(O)OP(=O)(O)OP(=O)(O)O)[C@@H](O)[C@@H]2O)C(=O)N1 ; value: >100 µM
CCNc1cccnc1N1CCN(C(=O)c2cc3ccccc3[nH]2)CC1 ; strain: IIIB ; value: 0.85 µM
COc1ccnc2[nH]cc(C(=O)C(=O)N3CCN(C(=O)c4ccccc4)C[C@H]3C)c12 ; value: >100 µM
C=CCOc1ccc2c(c1OC(C)=O)C(=O)c1ccccc1C2=O ; changes: K103N ; value: 100 µM
O=C(OC1[C@H](OC(=O)c2cc(O)c(O)c(O)c2)CC(OC(=O)c2cc(O)c(O)c(O)c2)(C(=O)O)C[C@H]1OC(=O)c1cc(O)c(O)c(O)c1)c1cc(O)c(O)c(O)c1 ; strain: RF ; value: 0.8 µM
Cc1cn([C@H]2CC[C@@H](COP(=O)(O)OP(=O)(O)OP(=O)(O)O)O2)c(=O)[nH]c1=O ; strain: LAV ; value: 0.0088 µM
Nc1nc2c(ncn2[C@@H]2C=C[C@H](OCP(=O)(O)OP(=O)(O)C(F)(F)P(=O)(O)O)C2)c(=O)[nH]1 ; value: 5.8 µM
Nc1ncnc2c1ncn2[C@@H]1O[C@H](COP([O-])(=S)OC2C(O)[C@@H](COP([O-])(=S)OC3C(O)[C@@H](CO)O[C@H]3n3cnc4c(N)ncnc43)O[C@H]2n2cnc3c(N)ncnc32)C(O)C1O ; value: 0.5 µM
CC(=O)Nc1ccc(SSc2ccc(NC(C)=O)cc2C(N)=O)c(C(N)=O)c1 ; value: >100 µM
Cc1c(C)c2c(c(C)c1OC(=O)OC1CC(COP(=O)(O)OC3CC(COP(=O)(O)OC4CC(CO)OC4n4cnc5c(N)ncnc54)OC3n3cnc4c(N)ncnc43)OC1n1cnc3c(N)ncnc31)CCC(C)(CCCC(C)CCCC(C)CCCC(C)C)O2 ; value: ~300 µM
O=C(O)CCC(CCC(=O)O)(CCC(=O)O)NC(=O)CCC(CCC(=O)NC(CCC(=O)O)(CCC(=O)O)CCC(=O)O)(CCC(=O)NC(CCC(=O)O)(CCC(=O)O)CCC(=O)O)NC(=O)CCCOC(=O)C1(C(=O)OCCCC(=O)NC(CCC(=O)NC(CCC(=O)O)(CCC(=O)O)CCC(=O)O)(CCC(=O)NC(CCC(=O)O)(CCC(=O)O)CCC(=O)O)CCC(=O)NC(CCC(=O)O)(CCC(=O)O)CCC(=O)O)C2c3cc4c5c6c3-c3c(cc7c8c3C6C3c6c-5c(cc5ccc9cc(c-8c3c9c65)C7)C4)C21 ; value: 0.89 µM
S=C(NCCc1ccccn1)Nc1cccnn1 ; value: 3.3–33 µM

Repeating the final 8 entries:

smiles | strain | changes | value
O=C(OC1[C@H](OC(=O)c2cc(O)c(O)c(O)c2)CC(OC(=O)c2cc(O)c(O)c(O)c2)(C(=O)O)C[C@H]1OC(=O)c1cc(O)c(O)c(O)c1)c1cc(O)c(O)c(O)c1 | RF | - | 0.8 µM
Cc1cn([C@H]2CC[C@@H](COP(=O)(O)OP(=O)(O)OP(=O)(O)O)O2)c(=O)[nH]c1=O | LAV | - | 0.0088 µM
Nc1nc2c(ncn2[C@@H]2C=C[C@H](OCP(=O)(O)OP(=O)(O)C(F)(F)P(=O)(O)O)C2)c(=O)[nH]1 | - | - | 5.8 µM
Nc1ncnc2c1ncn2[C@@H]1O[C@H](COP([O-])(=S)OC2C(O)[C@@H](COP([O-])(=S)OC3C(O)[C@@H](CO)O[C@H]3n3cnc4c(N)ncnc43)O[C@H]2n2cnc3c(N)ncnc32)C(O)C1O | - | - | 0.5 µM
CC(=O)Nc1ccc(SSc2ccc(NC(C)=O)cc2C(N)=O)c(C(N)=O)c1 | - | - | >100 µM
Cc1c(C)c2c(c(C)c1OC(=O)OC1CC(COP(=O)(O)OC3CC(COP(=O)(O)OC4CC(CO)OC4n4cnc5c(N)ncnc54)OC3n3cnc4c(N)ncnc43)OC1n1cnc3c(N)ncnc31)CCC(C)(CCCC(C)CCCC(C)CCCC(C)C)O2 | - | - | ~300 µM
O=C(O)CCC(CCC(=O)O)(CCC(=O)O)NC(=O)CCC(CCC(=O)NC(CCC(=O)O)(CCC(=O)O)CCC(=O)O)(CCC(=O)NC(CCC(=O)O)(CCC(=O)O)CCC(=O)O)NC(=O)CCCOC(=O)C1(C(=O)OCCCC(=O)NC(CCC(=O)NC(CCC(=O)O)(CCC(=O)O)CCC(=O)O)(CCC(=O)NC(CCC(=O)O)(CCC(=O)O)CCC(=O)O)CCC(=O)NC(CCC(=O)O)(CCC(=O)O)CCC(=O)O)C2c3cc4c5c6c3-c3c(cc7c8c3C6C3c6c-5c(cc5ccc9cc(c-8c3c9c65)C7)C4)C21 | - | - | 0.89 µM
S=C(NCCc1ccccn1)Nc1cccnn1 | - | - | 3.3–33 µM